# Primary screen of a compound library

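Growth of Mycobacterium tuberculosis over 3 days (7H9 medium with glucose and tyloxapol); the read-out is not stated. Tested at 50 µM. Higher reads as more growth inhibition (inferred: compounds with an IC50 in retests scored well above the rest). Of about 69,000 compounds tested this way, about 760 (1.1%) reached 50% or more in at least one test.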

Results are given as percent effect.
The controls that fix the scale are not given in the record; negative values are as filed.
The entries come from a sample that favours strong results.
Two or more numbers in one place are separate tests of the same structure; such repeats can differ widely.

* COCCn1nc(C(=O)N(C)Cc2cnn(C)c2)ccc1=O : -13.84% & -11.15%
* COc1cccc(F)c1-c1c[nH]c(C)n1 : -38.46%
* CN(C)c1ccc(C(=O)NCCCNc2ccc(C(F)(F)F)cn2)cc1 : 26.77%
* CCN1CC(COC(=O)c2ccc(Br)cc2F)CC1=O (stereo not drawn) : 55%
* Cc1nc(C2CCCN2CCS(C)(=O)=O)no1 (stereo not drawn) : -18.73%
* CN(C)c1ncc2c(n1)C1(CCN(Cc3ccccc3)C1)COC2.O=C(O)C(F)(F)F (stereo not drawn) : 25.75%
* COCCCN(Cc1ccncc1)C(=O)CSc1ccc(F)cc1 : -16.39%
* COCCn1ccc2c(NC(=O)c3n[nH]c4c3CCC4)cccc21 : 50.63%
* COc1c(Cl)cc(Cl)cc1CN1CCC(C(N)=O)C1 (stereo not drawn) : -4.559% & 78.5%
* COc1ccc(C[C@H]2CN(C(=O)c3ncccn3)CC[C@@H]2OC)cc1 : -4.602%
* CNS(=O)(=O)Cc1ccc(CNC(=O)c2ccccn2)cc1 : 17.41%
* Cc1nc(-c2cccc(N3CCC(NC4CCOCC4)CC3)c2)cs1 : -5.095%
* COc1ccc(NC(=O)Cn2nc(C)c(C(C)=O)c2C)cc1 : 78.1% & 69.7%
* CN1CCN(C(=O)c2cc(-c3cccs3)cs2)CC1 : 11.81%
* CS(=O)(=O)c1ccc(-c2cnc(C3CCCN3)cn2)cc1.Cl (stereo not drawn) : -28.51%
* CN(CCO)Cc1cc(Cl)ccc1OCC(O)CN1CCCCCC1 (stereo not drawn) : 42.42%
* COc1cccc(CNC(CN2CCN(C)CC2)c2ccccc2)c1 (stereo not drawn) : 15.95%
* c1cncc(-c2nc(C3CC3)ncc2-c2ccnc(N3CCCC3)n2)c1 : 56.91%
* O=c1c2cc3c(cc2nnn1Cc1ccccc1Cl)OCCO3 : 71.34%
* O=C(NCC1CC1)c1cc(Cl)c2c(c1)OCCCO2 : 15.44% & 18.6%
* COC(=O)c1ccc(N2CCC(C(O)c3ccccc3)CC2)nn1 (stereo not drawn) : 94.89%
* CC(C)Cc1cc(NC(=O)c2cccnc2)n(C)n1 : 39.38%
* CC(C)c1nc(CN2CCC(c3ccnn3CCO)CC2)no1 : -12.89%
* NC(=O)C1CCN(C(=O)CCCc2ccc(Cl)c(Cl)c2)CC1 : 10.27%
* O=C(NCCSC1CCCC1)c1cnccn1 : -23.26%
* Cc1ncccc1Oc1cncc(C2CCCN2Cc2cncn2C)n1 (stereo not drawn) : 3.589%
* CCn1ncc(-c2cc(C(F)(F)F)nc(N3CCC(N)CC3)n2)c1C : 47.95% & 43.22%
* COc1ccc(C2CCCCCN2S(=O)(=O)N(C)C)cc1 (stereo not drawn) : 2.183% & 19.04%
* c1cncc(-c2ccc3c(c2)C2(CCNCC2)CC3)c1 : -60.78% & -0.8428%

The last 3 entries again:

compound	effect
CCn1ncc(-c2cc(C(F)(F)F)nc(N3CCC(N)CC3)n2)c1C	47.95 & 43.22
COc1ccc(C2CCCCCN2S(=O)(=O)N(C)C)cc1 (stereo not drawn)	2.183 & 19.04
c1cncc(-c2ccc3c(c2)C2(CCNCC2)CC3)c1	-60.78 & -0.8428

Source: ChEMBL document CHEMBL3988442, “University of Dundee, Small-Polar-MMV Screening Library” (2021).